Only a part is listed here, and it is no random draw. Calls of active or inactive are those of the source. No stated cut-off is given here; in the data, active means inhibition above about 16%; inactive means the rest.

The chains behind the UniProt entries cited, without tags or fusion partners.
UniProt P0A9M0, whole entry, looked up: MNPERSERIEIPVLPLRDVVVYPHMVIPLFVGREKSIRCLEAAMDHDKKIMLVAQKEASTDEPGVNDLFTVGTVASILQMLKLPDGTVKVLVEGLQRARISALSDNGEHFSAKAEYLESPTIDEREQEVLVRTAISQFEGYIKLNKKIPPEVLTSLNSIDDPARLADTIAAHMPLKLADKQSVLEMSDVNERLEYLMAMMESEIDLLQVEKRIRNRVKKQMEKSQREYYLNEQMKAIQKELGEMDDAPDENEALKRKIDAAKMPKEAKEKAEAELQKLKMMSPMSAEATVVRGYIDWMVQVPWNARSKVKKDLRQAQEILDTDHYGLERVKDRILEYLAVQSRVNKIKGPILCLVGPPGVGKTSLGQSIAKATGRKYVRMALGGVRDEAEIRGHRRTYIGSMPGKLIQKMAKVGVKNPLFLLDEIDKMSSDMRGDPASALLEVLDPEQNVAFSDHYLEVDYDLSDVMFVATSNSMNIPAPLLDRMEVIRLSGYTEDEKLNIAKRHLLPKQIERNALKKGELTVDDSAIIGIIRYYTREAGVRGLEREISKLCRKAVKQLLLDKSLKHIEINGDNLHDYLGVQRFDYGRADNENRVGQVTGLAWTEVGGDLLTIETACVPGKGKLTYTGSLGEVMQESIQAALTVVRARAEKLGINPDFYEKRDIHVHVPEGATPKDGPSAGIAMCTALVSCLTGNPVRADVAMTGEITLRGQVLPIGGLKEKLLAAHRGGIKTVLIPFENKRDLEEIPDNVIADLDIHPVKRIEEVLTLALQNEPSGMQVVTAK

This assay deals with Lon protease (Escherichia coli (strain K12)) (UniProt P0A9M0). Kind of assay: inhibition of eLon from E. coli – biochemical, fluorescence polarization, confirmation (AID 602230).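 Further: 0% = enzyme with probe and DMSO and 100% = no enzyme.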 To be noted: purified E. coli Lon, at 7.94 µM, stronger effect = higher value. (In general: In fluorescence polarisation assays a small probe gives low polarisation when free and higher when bound to something large.)
The inhibition is the change of the read-out against control, counted positive when it falls. Turning to `Nc1cccc2c([As](=O)(O)O)cccc12`, the inhibition was active: 142%.

For the origin of these results see PubChem BioAssay AID602230 (The Scripps Research Institute Molecular Screening Center, 2012).
